Results deposited as PubChem BioAssay AID504761 (Drosophila RNAi Screening Center, 2011)
In all, the deposit lists about 22,000 reagents; shown is an unselected part of those that have a named target and a result. Of all reagents, 116 (0.52%) were called active. 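Calls depend on retest data that are not deposited; infection was ranked per plate without normalising between plates; the unit of the infection score is not given.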 Raw values are not corrected between plates. A plus sign joins genes that one reagent is predicted to hit. Not all columns of the deposit are shown. Not stated in the record: the amount of reagent, the time to read-out.

- Screen: 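Insect host genes that dengue virus relies on to spread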 (primary screen)
- System: D.Mel-2 cells from Drosophila
- Reagent: long dsRNA against Drosophila genes
- Conditions: infection with dengue virus type 2; dose and infection time not stated
- Measured: 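Per well on two replicate plates, imaging gave the percent of cells positive for viral envelope protein, ranked by infection, and a nuclear count of cells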
- Reading the numbers: infection score: higher = more virus-infected cells; cell count: higher = more cells in the well
- Hit rule: 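Low infection ranks in the two replicates (chance level up to 0.065) followed by a retest with a 1.5-fold or larger significant decrease, p below 0.05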
- Calls: active = confirmed: knock-down lowers infection; inactive = not picked or not confirmed

infection score, replicate 1 | infection score, replicate 2 | cell count, replicate 1 | Outcome | gene | amplicon
3.48 | 12.3 | 6067 | inactive | Nep1 (GeneID 31547) | DRSC18388
8.85 | 7.65 | 6000 | inactive | Nep1 (GeneID 31547) | DRSC26208
11.8 | 0.9 | 5443 | inactive | CG9222 (GeneID 33867) | DRSC03158
20.4 | 5.05 | 6447 | inactive | CG7300 (GeneID 34472) | DRSC03044
15.9 | 7.27 | 5627 | inactive | CG7300 (GeneID 34472) | DRSC28239
2.37 | 4.2 | 6336 | inactive | dod (GeneID 33111) | DRSC20577
12.6 | 2.26 | 5931 | inactive | dod (GeneID 33111) | DRSC26403
12.1 | 10.9 | 5666 | inactive | Gad1 (GeneID 38484) | DRSC08661
10.5 | 3.79 | 6328 | inactive | Gad1 (GeneID 38484) | DRSC27052
11.3 | 12.7 | 6555 | inactive | Apc2 (GeneID 42871) | DRSC14115
27.3 | 4.84 | 5404 | inactive | Cyp28a5 (GeneID 34817) | DRSC03297
2.11 | 12.3 | 6667 | inactive | Max (GeneID 40095) | DRSC11218
8.27 | 3.92 | 6098 | inactive | Oatp33Eb (GeneID 34662) | DRSC02955
5.11 | 5.65 | 6402 | inactive | CG10694 (GeneID 42855) | DRSC14263
19.2 | 10.6 | 5396 | inactive | Pcl (GeneID 37069) | DRSC07503
11.9 | 4 | 6072 | inactive | Pcl (GeneID 37069) | DRSC24868
4.45 | 2.05 | 6783 | inactive | NimB2 (GeneID 260645) | DRSC22645
3.21 | 2.69 | 6045 | inactive | nudC (GeneID 39879) | DRSC11096
2.71 | 3.51 | 6169 | inactive | nudC (GeneID 39879) | DRSC11097
1.43 | 3.68 | 2445 | inactive | RpL24 (GeneID 34754) | DRSC03185
8.87 | – | 1589 | inactive | RpL24 (GeneID 34754) | DRSC28724
2.59 | 5.82 | 5493 | inactive | CG7011 (GeneID 39657) | DRSC09347
– | 6.05 | 361 | inactive | CG7011 (GeneID 39657) | DRSC28334
0.16 | 0.42 | 6751 | active | Cht10 (GeneID 3355116) | DRSC03766
19.8 | 13.2 | 6025 | inactive | Cht10 (GeneID 3355116) | DRSC03767
4.67 | 8.3 | 6640 | inactive | Cht10 (GeneID 3355116) | DRSC03768
2.71 | 15.4 | 6852 | inactive | CG14377 (GeneID 41649) | DRSC14837
2.42 | 4.23 | 6151 | inactive | CG14377 (GeneID 41649) | DRSC26342

Records above whose target name begins with P or p (2):
infection score, replicate 1 | infection score, replicate 2 | cell count, replicate 1 | Outcome | gene | amplicon
19.2 | 10.6 | 5396 | inactive | Pcl (GeneID 37069) | DRSC07503
11.9 | 4 | 6072 | inactive | Pcl (GeneID 37069) | DRSC24868

Continued.
infection score, replicate 1 | infection score, replicate 2 | cell count, replicate 1 | Outcome | gene | amplicon
1.96 | 2.79 | 6367 | inactive | Ugt37A2 (GeneID 41573) | DRSC15861
4.68 | 16.9 | 6117 | inactive | Ugt37A2 (GeneID 41573) | DRSC29967
3.04 | 2.92 | 5990 | inactive | CG18814 (GeneID 59175) | DRSC10347
3.67 | 6.42 | 6319 | inactive | CG4074 + CG4186 | DRSC11753
6.89 | 8.65 | 6469 | inactive | GstE12 (GeneID 37960) | DRSC04047
9.49 | 15.7 | 6662 | inactive | GstE12 (GeneID 37960) | DRSC27281
11.4 | 18.3 | 6138 | inactive | CG4631 (GeneID 34988) | DRSC02766
6.64 | 3.27 | 6263 | inactive | CG4631 (GeneID 34988) | DRSC22194
4.94 | 23 | 5390 | inactive | bft (retired record) (GeneID 3772171) | DRSC21354
16.2 | 13.5 | 5701 | inactive | bft (retired record) (GeneID 3772171) | DRSC29259
1.67 | 1.11 | 6478 | inactive | CG10051 (GeneID 37222) | DRSC05959
9.14 | 7.43 | 6607 | inactive | Cds + Setx | DRSC27090
5.43 | 0.85 | 5579 | inactive | Acbp4 (GeneID 38781) | DRSC11023
– | – | 371 | inactive | Acbp4 (GeneID 38781) | DRSC28938
6.86 | 3.92 | 6454 | inactive | CG3088 (GeneID 39115) | DRSC10352
4.55 | 11.3 | 5777 | inactive | Mrp4 (GeneID 41387) | DRSC14931
8.17 | 15.1 | 6612 | inactive | Mrp4 (GeneID 41387) | DRSC28151
0.96 | 0.35 | 5966 | inactive | santa-maria (GeneID 34024) | DRSC00994
8.57 | 1.72 | 6184 | inactive | santa-maria (GeneID 34024) | DRSC02180
31.4 | 25.1 | 4172 | inactive | Smyd4-1 (GeneID 35985) | DRSC06785
5.05 | 13.6 | 6456 | inactive | Smyd4-1 (GeneID 35985) | DRSC27142
4.78 | 3.77 | 6128 | inactive | Npc2b (GeneID 41710) | DRSC15464
12.8 | 12.7 | 4933 | inactive | DCTN2-p50 (GeneID 44086) | DRSC07132
16.7 | 5.84 | 6660 | inactive | Cyp4ad1 (GeneID 35821) | DRSC07369
9.27 | 3.55 | 5068 | inactive | scpr-C + scpr-B + scpr-A | DRSC26639
1.8 | 15.5 | 6628 | inactive | Ppi1 (GeneID 43581) | DRSC15421
2.6 | 1.61 | 6046 | inactive | Kif3C (GeneID 43820) | DRSC17209
1.77 | 0.26 | 6483 | inactive | Kif3C (GeneID 43820) | DRSC17210
15.2 | 26.7 | 6029 | inactive | CG16904 (GeneID 41212) | DRSC15161
2.59 | 6.8 | 5860 | inactive | CG16904 (GeneID 41212) | DRSC25306
